Measurements taken from ChEMBL document CHEMBL3808367, “Novel HIV-1 Non-nucleoside Reverse Transcriptase Inhibitor Agents: Optimization of Diarylanilines with High Potency against Wild-Type and Rilpivirine-Resistant E138K Mutant Virus” (J Med Chem, 2016).

Assay: Selectivity index, ratio of CC50 for human TZM-bl cells to EC50 for HIV1 3B infected in human MT2 cells
Type: toxicity, cell-based

## Cc1cc(CCC#N)cc(C)c1Oc1cc(Nc2ccc(C#N)cc2)c(N)cc1Br
  Ratio CC50/EC50: 160000
